{"source": "patent US20230357406", "key": {"[1]": {"molecular_target": "human Fc-CTLA-4 protein, human, P16410 36-161", "experiment": "ELISA"}, "[2]": {"molecular_target": "T1, non-human primate (NHP) Fc-CTLA-4 protein, non-human primate (NHP)", "T1 sequence": "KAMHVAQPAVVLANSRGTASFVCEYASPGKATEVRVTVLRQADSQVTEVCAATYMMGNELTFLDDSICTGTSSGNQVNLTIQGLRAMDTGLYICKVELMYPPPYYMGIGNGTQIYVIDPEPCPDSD", "experiment": "ELISA"}}, "data": [{"substance": "CTLA-4 ETB 118421", "values": [{"measurement": "EC50", "setting": "[1]", "result": 0.59, "unit": "nM"}, {"measurement": "EC50", "setting": "[2]", "result": 0.38, "unit": "nM"}]}]}
